Measured values taken from PMC3426641 (Biochemistry, 2012).

Sequences of proteins named here, by UniProt entry; tags and fusion partners are left off. A change or cut given only in a name is not applied to a line headed by its entry.
UniProt P9WFK7: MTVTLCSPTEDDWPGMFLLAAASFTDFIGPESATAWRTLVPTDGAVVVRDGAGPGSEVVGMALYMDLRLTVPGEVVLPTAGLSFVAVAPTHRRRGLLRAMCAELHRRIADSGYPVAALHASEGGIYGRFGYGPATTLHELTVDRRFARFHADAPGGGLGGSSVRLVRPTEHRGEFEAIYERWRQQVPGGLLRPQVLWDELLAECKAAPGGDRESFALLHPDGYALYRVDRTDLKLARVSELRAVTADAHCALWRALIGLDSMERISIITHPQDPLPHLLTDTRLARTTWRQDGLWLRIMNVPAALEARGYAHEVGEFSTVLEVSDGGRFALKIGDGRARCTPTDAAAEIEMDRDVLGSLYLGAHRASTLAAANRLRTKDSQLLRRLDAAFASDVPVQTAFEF

Tests used:
kanamycin A = test: purified protein, by the assay type; conditions: pH 8.0; 25.0 °C
Eis_Mtb = Eis_Mtb (Mycobacterium tuberculosis, UniProt P9WFK7); conditions: read-out: Kd,AG(E•AcCoA)

“Eis_Mtb (Mycobacterium tuberculosis H37Rv)” showed a Km (kanamycin A) of 490 ± 140 µM and a kcat (kanamycin A) of 0.12 s⁻¹.

Substance kanamycin A has a Kd (Eis_Mtb) of 350 ± 150 µM.
